Laboratory results: PubChem BioAssay AID1259414 (Drosophila RNAi Screening Center, 2018)
Screen: 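Fly genes that alter Wolbachia amount inside host cells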 (primary screen). Cells: Drosophila JW18 cells infected with Wolbachia. Reagents: long dsRNA against Drosophila genes, 0.25 µg dsRNA per well of a 384-well plate. Duration: 5 days. Conditions: cells persistently infected with Wolbachia before knock-down; no added drug. Detection: 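Imaged fluorescence in situ signal for Wolbachia 23S rRNA per DAPI-counted host cell, given as a robust z-score within each plate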. Direction: Wolbachia per cell robust z: higher = more Wolbachia per host cell than the plate typical. Hit rule: 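Hit when robust z is 1.5 or more, or -1.5 or less, in at least two of three replicates; excludes dsRNAs with several or no targets, genes not expressed in JW18 and well A1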.
The deposit covers about 24,000 reagents; this is an unselected part of those with a known target gene and a result. Of all reagents, about 1,210 (5%) got an active call. 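Inactive calls also include excluded dsRNAs with several or no targets, genes unexpressed in JW18, and well A1, regardless of score.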 A plus sign joins genes that one reagent is predicted to hit. Reagent sequences are not shown.

target gene | dsRNA | Wolbachia per cell robust z, rep 1 | Wolbachia per cell robust z, rep 2 | Wolbachia per cell robust z, rep 3 | activity call
CG10970 (GeneID 31830) | DRSC17772 | 0.867 | 0.459 | 0.314 | inactive
CG1998 (GeneID 32300) | DRSC19829 | -1.37 | 1.34 | 1.13 | inactive
Snmp2 (GeneID 38868) | DRSC10228 | -0.0515 | -0.955 | -1.29 | inactive
Snmp2 (GeneID 38868) | DRSC10843 | 0.381 | -0.554 | -1.44 | inactive
IntS8 (GeneID 36886) | DRSC07417 | 0.955 | 0.839 | 0.585 | inactive
CG2113 (GeneID 38356) | DRSC08554 | 0.441 | 0.988 | 0.495 | inactive
CG2113 (GeneID 38356) | DRSC29350 | -0.622 | 0.713 | -0.694 | inactive
idc (GeneID 42393) | DRSC15680 | 1.51 | 1.1 | 0.595 | inactive
Irp-1B (GeneID 41269) | DRSC16720 | -4.92 | -4.74 | -1.71 | active
Irp-1B (GeneID 41269) | DRSC24261 | -1.22 | -0.221 | -1.33 | inactive
Duox (GeneID 33477) | DRSC27209 | -0.292 | 0.447 | -0.255 | inactive
Drp1 (GeneID 33445) | DRSC00574 | -2.48 | 0.223 | -4.1 | active
Drp1 (GeneID 33445) | DRSC26413 | 1.13 | 0.555 | 1.22 | inactive
l(2)k05819 (GeneID 33644) | DRSC00826 | 0.424 | -2.02 | -1.51 | active
CG6154 (GeneID 43184) | DRSC15977 | -0.383 | -0.476 | 0.378 | inactive
CG6154 (GeneID 43184) | DRSC28363 | 0.746 | 1.04 | 0.388 | inactive
sens-2 (GeneID 33957) | DRSC02613 | 0.623 | 0.854 | 0.458 | inactive
sens-2 (GeneID 33957) | DRSC25026 | 0.364 | 0.326 | 0.969 | inactive
CanA-14F (GeneID 8674098) | DRSC23296 | -0.0583 | 0.291 | -0.557 | inactive
CG5273 (GeneID 31021) | DRSC18612 | -0.525 | 0.615 | 0.926 | inactive
Slu7 (GeneID 43427) | DRSC14729 | 1.63 | 1.83 | 2.02 | active
Slu7 (GeneID 43427) | DRSC23582 | 2.26 | 2.89 | 2.74 | active
Pgm2b (GeneID 36649) | DRSC05978 | 1.26 | 0.236 | -0.839 | inactive
Pgm2b (GeneID 36649) | DRSC26452 | 0.0726 | 0.16 | -0.784 | inactive
CG30103 (GeneID 36969) | DRSC06894 | 0.0847 | -0.766 | -2.47 | inactive
CG30103 (GeneID 36969) | DRSC29743 | -7.64 | -7.6 | -5.17 | inactive
ppk5 (GeneID 2768987) | DRSC11492 | 1.04 | -0.79 | 0.793 | inactive
phu (GeneID 41135) | DRSC16390 | 0.674 | -1.68 | -1.93 | inactive
mRpL49 (GeneID 32242) | DRSC19908 | -0.151 | -0.507 | -0.614 | inactive
CG5886 (GeneID 43125) | DRSC15908 | 0.486 | 0.584 | 0.105 | inactive
CR31427 (GeneID 43464) | DRSC22675 | -0.978 | 0.8 | 0.574 | inactive
CR31427 (GeneID 43464) | DRSC26472 | 0.355 | 0.0588 | 0.399 | inactive
firl (GeneID 34627) | DRSC02428 | -1.12 | -0.101 | 0.0285 | inactive
cos (GeneID 35653) | DRSC07598 | 0.396 | 0.887 | 0.379 | inactive
cos (GeneID 35653) | DRSC28447 | -1.04 | -0.0118 | -0.395 | inactive
CG32052 (GeneID 326184) | DRSC10966 | -1.62 | 0.666 | -6.66 | inactive
CG32052 (GeneID 326184) | DRSC27465 | -5.58 | -1.17 | -1.42 | inactive
gudu (GeneID 34014) | DRSC02820 | -0.508 | -2.61 | -1.34 | inactive
RanBP3 (GeneID 42804) | DRSC23153 | -0.299 | 0.698 | 0.649 | inactive
RanBP3 (GeneID 42804) | DRSC27585 | 1.42 | -1.96 | 1.14 | inactive
St1 (GeneID 37742) | DRSC04504 | 0.773 | -3.89 | -2.36 | inactive
St1 (GeneID 37742) | DRSC25543 | -0.831 | -0.493 | 0.973 | inactive
mEFTu1 (GeneID 44438) | DRSC06959 | -1.05 | 0.496 | -0.298 | inactive
mEFTu1 (GeneID 44438) | DRSC29468 | 0.599 | -0.54 | 1.39 | inactive
CG3337 (GeneID 42519) | DRSC15478 | 0.919 | 0.306 | -0.204 | inactive
CG18808 (GeneID 59169) | DRSC08539 | 0.427 | 0.238 | -4.88 | inactive
Mlc-c (GeneID 31474) | DRSC18683 | 0.405 | 0.884 | -5.86 | inactive
Mlc-c (GeneID 31474) | DRSC26543 | -2.43 | -0.811 | -0.776 | inactive
AMPdeam (GeneID 32352) | DRSC19366 | 0.337 | 0.166 | -1.53 | inactive
AMPdeam (GeneID 32352) | DRSC19368 | 0.694 | 1.02 | 0.945 | inactive
AMPdeam (GeneID 32352) | DRSC19727 | 0.821 | -0.22 | -4.02 | inactive
Ldsdh1 (GeneID 31726) | DRSC18219 | -3.09 | 0.272 | -0.86 | inactive
Ldsdh1 (GeneID 31726) | DRSC26664 | 0.74 | 0.157 | 0.217 | inactive
CG30062 (GeneID 246428) | DRSC21737 | 0.218 | -0.897 | 0.254 | inactive
CG11768 + CG34135 + Nasp | DRSC29630 | -2.14 | -0.0107 | -1.11 | inactive
CG7406 (GeneID 32892) | DRSC20042 | 0.178 | -0.107 | 0.368 | inactive
CG7406 (GeneID 32892) | DRSC28709 | 0.645 | -1.08 | -1.8 | inactive
hang (GeneID 32613) | DRSC23216 | -0.563 | 1.04 | 2.15 | inactive
hang (GeneID 32613) | DRSC29322 | 1.2 | 0.64 | -0.314 | inactive
CG32302 (GeneID 38293) | DRSC08340 | -3.95 | 0.64 | 0.822 | inactive
Pgk (GeneID 33461) | DRSC23340 | -3.14 | -0.35 | -0.61 | inactive
Pgk (GeneID 33461) | DRSC26595 | 0.659 | 1.55 | 0.227 | inactive
Dro (GeneID 36635) | DRSC07406 | -0.00391 | -3.81 | 0.177 | inactive
Dro (GeneID 36635) | DRSC39147 | -0.782 | -6.05 | -0.403 | inactive
RpS30 (GeneID 42470) | DRSC15119 | 2.23 | 1.45 | 1.26 | inactive
RpS30 (GeneID 42470) | DRSC26355 | 3.88 | 5.02 | 6.06 | active
shv (GeneID 33220) | DRSC00640 | -0.545 | -0.676 | 2.89 | inactive
shv (GeneID 33220) | DRSC22122 | 0.17 | 0.905 | 1.4 | inactive
shv (GeneID 33220) | DRSC26482 | 0.32 | 0.411 | -0.311 | inactive
shv (GeneID 33220) | DRSC26483 | -0.297 | -0.618 | -0.0828 | inactive

Just “Wolbachia per cell robust z, rep 2”, for 4 of the entries above:
CG6154 (GeneID 43184) [DRSC28363] = 1.04
sens-2 (GeneID 33957) [DRSC02613] = 0.854
sens-2 (GeneID 33957) [DRSC25026] = 0.326
CanA-14F (GeneID 8674098) [DRSC23296] = 0.291
